Results of unrelated studies side by side (data: NIAID ChemDB).

All rows: host cell toxicity; cell line: MCF-7; measure: CC50

Conditions beyond the fields shown may differ between rows. CCn: concentration that lowers growth or viability of the cells by n%.

smiles | method | value
C[C@H]([C@@H]1CC[C@@H](C)C(=O)O1)[C@H]1CC[C@@]2(C)C3=C(CC[C@]12C)[C@@]1(C)CC[C@@H](O)C(C)(C)C1CC3 | resazurin | >50 µg/mL
C/C(=N\NC(=O)c1ccc([N+](=O)[O-])cc1)c1cccc(/C(C)=N/NC(=O)c2ccc([N+](=O)[O-])cc2)n1 | MTT | >100 µM
C/C(=C\C[C@H](O)[C@@H](C)[C@H]1CC[C@@]2(C)C3=C(CC[C@]12C)[C@@]1(C)CCC(=O)C(C)(C)C1CC3)C(=O)O | resazurin | >50 µg/mL
CN1C=CN(c2cccc(N3C=CN(C)C3)n2)C1.[Cl][Au].[Cl][Au] | sulforhodamine / absorbance | >30 µM
CC(=O)O[C@@H](C/C=C(\C)C(=O)O)[C@@H](C)[C@H]1CC[C@@]2(C)C3=C(CC[C@]12C)[C@@]1(C)CCC(=O)C(C)(C)C1CC3 | resazurin | >50 µg/mL
CC(=O)/C=C/c1cc(-c2ccccc2)cnc1Cl | MTT | 138 µM
O=C(O)c1ccc(-c2ccc(/C=C3\SC(=S)N(CCc4ccc(Cl)c(Cl)c4)C3=O)o2)cc1O | MTT | >100 µM
C[C@@H]1C[C@@H](O)c2c(O[C@H]3O[C@H](CO)[C@@H](O)[C@H]3O)cccc2O1 | MTT | >40 µg/mL
CCO[C@H]1c2cc(O)c(OC)c(OC)c2-c2c(cc(O)c(OC)c2OC)C[C@H](C)[C@@H]1C | MTT | >10 µg/mL
CCOC(=O)c1[nH]c2c(c1N)C1=C(CCC/C1=C\c1ccncc1)C(c1ccncc1)S2 | MTT | >50 µM
COc1cc2c(c(OC)c1O)-c1c(cc3c(c1OC)OCO3)C[C@H](C)[C@H](C)[C@@H]2O | MTT | 5.6 µg/mL
COC1=Cc2c(cc(OC3=C4C(=CC(=O)C4(C)C)c4cc(OC)c(C)cc4C3=O)c3cc(C)c(OC)cc23)C(C)(C)C1=O | absorbance | >10 µM
O=C1Sc2nc3c(c(=S)n2C/C1=C/c1ccc(Cl)cc1)C1=C(CCC/C1=C\c1ccncc1)C(c1ccncc1)S3 | MTT | 18.6 µM
COC(=O)c1ccc(/C=C/C(=O)c2ccccc2)c(Cl)n1 | MTT | 52 µM
COc1ccc2[nH]c3c(C)c(C)c(OC)c(O)c3c2c1 | resazurin | 9.8 µg/mL
CC(C)c1nc(C(=O)NCc2ccc(F)cc2)c(O)c(=O)n1C | MTT | >20 µM
CCc1nc(CCC(=O)O)cnc1CCC(=O)O | MTT | >40 µg/mL
CC(=O)O[C@H]1C=C2[C@@H](CC[C@H](OC(C)=O)C2(C)C)[C@]2(C)CC[C@]3(C)[C@@H]([C@H](C)C[C@H](C=C(C)C)OC(C)=O)CC[C@@]3(C)[C@H]12 | MTT | >133.3 µM
N#CC1=C(N)SC(c2ccncc2)C2=C1/C(=C/c1ccncc1)CCC2 | MTT | >50 µM
O=C(/C=C/c1cc(-c2ccccc2)cnc1Cl)c1ccccc1 | MTT | 82 µM
O=C1NC(=Nc2ccc(F)c(Cl)c2)S/C1=C\c1ccc(-c2ccc(C(=O)O)c(O)c2)o1 | MTT | 13 µM
O=C(O)c1cn(CCO)c2ccc(Cc3ccccc3)cc2c1=O | MTT | >20 µM
COc1c(C)c(C)c2[nH]c3ccccc3c2c1O | resazurin | 8.4 µg/mL
CCCc1cnc(Cl)c(/C=C/C(=O)OCC)c1 | MTT | 9 µM
Cc1ncc(-c2c[nH]c3ccccc23)o1 | resazurin | >50 µg/mL
CC1=C([C@H](C)CC/C=C(/C)C(=O)O)CC[C@@]2(C)[C@@H]3CC[C@H]4C(C)(C)C(=O)CC[C@]4(C)[C@]34O[C@@H]4[C@@]12O | MTT | >40 µg/mL
COc1c(C)c(C)c2[nH]c3ccccc3c2c1OC | resazurin | 26.2 µg/mL
C[C@@H]1C[C@@H](O)[C@H]2C3=C(C[C@H](O)[C@@]2(O)C1)C(=O)c1c(O)cccc1C3=O | resazurin | 3.6 µM